Compound potency records, mixed from different reports. Data source: NIAID ChemDB in PubChem.

All rows: toxicity to cultured cells; endpoint: CC50

Rows are shuffled and stem from different studies. CCn: concentration that lowers growth or viability of the cells by n%.

O=c1[nH]c(=O)n([C@@H]2CO[C@H](CO)[C@@H](O)C2)cc1-c1cccs1 ; cell line: E6SM ; result: >400 µg/mL
CC(C)(C)NC(=O)c1cccc(-c2cc(=O)n(O)c3ncccc23)c1 ; cell line: HeLa ; result: <100 µM
CC(C)=C[C@H](O)C[C@@H](C)[C@H]1CC[C@@]2(C)[C@@H]3[C@@H](O)C=C4[C@@H](CC[C@H](O)C4(C)C)[C@]3(C)CC[C@]12C ; cell line: MCF-7 ; method: MTT ; result: 27.3 µM
CN(CCOc1ccc(-c2ccc(Cl)cc2)cc1)CCN1CCN(c2ccncc2)C1=O ; cell line: RD ; result: >25 µM
CC(=O)O[C@@H](C/C=C(\C)C(=O)O)[C@@H](C)[C@H]1CC[C@@]2(C)C3=C(CC[C@]12C)[C@@]1(C)CC[C@@H](O)C(C)(C)C1CC3 ; cell line: NCI-H187 ; method: resazurin ; result: 34.15 µg/mL
CC(CCOc1ccc(-c2ccc(Cl)cc2)cc1)CCN1CCN(c2ccncc2)C1=O ; cell line: RD ; result: >25 µM
C[C@H](Nc1ccccc1)c1cc2c(cc1O)OC(C)(C)C=C2 ; cell line: L6 rat skeletal myoblasts ; result: 179 µM
CCOC(=O)/C=C/[C@H](C[C@@H]1CCNC1=O)NC(=O)COc1ccc(Cl)c(Cl)c1 ; cell line: H1-HELA ; result: >10 µM
CCOC(=O)CCCCCOc1cccc(CNC(C)C)c1 ; cell line: HEK 293 ; result: >20 µM
O=c1[nH]cnc2c1ncn2C/C=C(/CO)c1ccccc1 ; cell line: CCL18 ; result: >100 µg/mL
C[C@H](Cn1cnc2c(N)ncnc21)OCP(=O)(O)O ; cell line: HepG2.2.5 cells ; method: MTT ; result: >1740 µM
C[N+](C)(C)C(Cc1c[nH]c2ccccc12)C(=O)[O-] ; cell line: NCI-H187 ; method: resazurin ; result: >50 µg/mL
Nc1nc2c(ncn2CC=C(CO)CO)c(=O)[nH]1 ; cell line: CCL18 ; result: >100 µg/mL
O=C(N/N=C(/CS(=O)(=O)c1ccccc1)c1ccc(F)cc1)c1ccc([N+](=O)[O-])o1 ; cell line: MDA-MB-231 ; method: MTT ; result: >50 µg/mL
CCOC(=O)COc1ccc(C=O)cc1 ; cell line: RAJI ; result: >20 µM
CC(=N\NC(=O)c1ccc([N+](=O)[O-])o1)/C(Cl)=N/Nc1ccc(S(=O)(=O)Nc2nccs2)cc1 ; cell line: MDA-MB-231 ; method: MTT ; result: >50 µg/mL
CCOC(=O)COc1ccccc1CN(C(=O)c1ccc(-c2ccc3c(c2)OCO3)cc1)C(C)C ; cell line: RAJI ; result: >20 µM
CCCc1nc(-c2ccc(OCCC(C)CCN3CCN(c4ccncc4)C3=O)cc2)no1 ; cell line: RD ; result: >12.5 µM
CCOC(=O)CCCCOc1ccccc1C=O ; cell line: BJ ; result: >20 µM
Nc1nc2c(ncn2[C@@]23CO[C@@H]2[C@H](O)[C@@H](CO)O3)c(=O)[nH]1 ; cell line: Zluc ; method: resazurin ; result: >100 µM
CC(CCOc1ccc(-c2noc(C(F)(F)F)n2)cc1)CCN1CCN(c2ccncc2)C1=O ; cell line: RD ; result: >25 µM
COc1cc2c(cc1[C@@H](C)N(C)c1ccccc1)C=CC(C)(C)O2 ; cell line: L6 rat skeletal myoblasts ; result: 46.3 µM
C/C(=C\C[C@H](O)[C@@H](C)[C@H]1CC[C@@]2(C)C3=C(CC[C@]12C)[C@@]1(C)CC[C@H](O)C(C)(C)C1CC3)C(=O)O ; cell line: NCI-H187 ; method: resazurin ; result: >50 µg/mL
O=c1[nH]cnc2c1ncn2CC=C(CO)CO ; cell line: CCL18 ; result: >100 µg/mL
CCOC(=O)/C=C/[C@H](C[C@@H]1CCNC1=O)NC(=O)/C=C/c1cc2c(cc1Br)OCO2 ; cell line: H1-HELA ; result: >100 µM
Cc1cn(C2C[C@H](N=[N+]=[N-])[C@@H](COP(=O)(Nc3cc(C(=O)Nc4cc(C(=O)Nc5cc(C(=O)NCCC#N)n(C)c5)n(C)c4)n(C)c3)OC(C)C)O2)c(=O)[nH]c1=O ; cell line: CEM/TK- ; method: MTT ; result: 177 µM
O=C1N(CCN(CCOc2ccc(-c3ccc(Cl)cc3)cc2)Cc2ccc(Cl)cc2)CCN1c1ccncc1 ; cell line: RD ; result: >25 µM
CCOC(=O)/C=C/[C@H](C[C@@H]1CCNC1=O)NC(=O)c1ccc2ccc(Br)cc2c1 ; cell line: H1-HELA ; result: 56.2 µM
Nc1ccc(-c2ccc3c(c2)CN(c2cc(=O)n(O)c4ncccc24)CC3)cc1 ; cell line: HeLa ; result: <100 µM
CCOC(=O)CCCCCOc1cccc(CN(C(=O)c2ccc(-c3cc(OC)ccc3F)cc2)C(C)C)c1 ; cell line: HEK 293 ; result: >20 µM
OCC(=CCn1cnc2c(Cl)ncnc21)CO ; cell line: CCL18 ; result: >100 µg/mL
CCOC(OCC)C1=NCCc2cc(OC)c(OC)cc21 ; cell line: RAJI ; result: <7.5 µM
O=c1[nH]c(=O)n([C@@H]2CO[C@H](CO)[C@@H](O)C2)cc1Cl ; cell line: E6SM ; result: >400 µg/mL
CCOC(=O)/C=C/[C@H](CCC(N)=O)NC(=O)NC(CC(C)C)C(=O)OCC ; cell line: H1-HELA ; result: >100 µM
C[C@@H](Nc1ccccc1)c1cc2c(cc1O)OC(C)(C)C=C2 ; cell line: L6 rat skeletal myoblasts ; result: 18.8 µM
CO[C@H]1CC(=O)c2c(O)cccc2[C@H]1O ; cell line: NCI-H187 ; result: 2.86 µg/mL
O=C1N(CCC(CCOc2ccc(-c3ccc(Cl)cc3)cc2)C(F)(F)F)CCN1c1ccncc1 ; cell line: RD ; result: >12.5 µM
CN(C)CCCN1CCN(c2cccc(-c3cc(=O)n(O)c4ncccc34)c2)CC1 ; cell line: HeLa ; result: <100 µM
CC#Cc1cn([C@@H]2CO[C@H](CO)[C@@H](O)C2)c(=O)[nH]c1=O ; cell line: E6SM ; result: >400 µg/mL
CC1=CSC2=NC(/C=C/c3ccc(Cl)cc3)=C(C(=O)/C=C/c3ccc(Cl)cc3)C(c3ccc(Cl)cc3)N12 ; cell line: C1008 (Vero cells) ; method: resazurin ; result: 309 µg/mL
CC(=N\NC(=O)c1ccc([N+](=O)[O-])o1)/C(Cl)=N/Nc1ccc(S(=O)(=O)Nc2ncccn2)cc1 ; cell line: MDA-MB-231 ; method: MTT ; result: 33.7 µg/mL
COc1ccc(/C=C/C(=O)C2=C(/C=C/c3ccc(OC)cc3)N=C3SC=C(C)N3C2c2ccccc2)cc1 ; cell line: C1008 (Vero cells) ; method: resazurin ; result: 358 µg/mL
Nc1ncnc2c1ncn2C/C=C(/CO)c1ccccc1 ; cell line: CCL18 ; result: >100 µg/mL
CC(C)c1nc(Oc2ccc(S(C)(=O)=O)cc2)ccc1CN1CCC(N2C(=O)N(c3cc(C(N)=O)c(F)cc3F)C[C@H]2c2ccccc2)CC1 ; cell line: HOS ; result: 2.6 nM
CCOC(=O)/C=C/[C@H](CCC(N)=O)NC(=O)c1ccc2ccccc2c1 ; cell line: H1-HELA ; result: >100 µM
CC1=CSC2=NC(/C=C/c3ccc(Br)cc3)=C(C(=O)/C=C/c3ccc(Br)cc3)C(c3ccccc3)N12 ; cell line: C1008 ; method: resazurin ; result: 282 µg/mL
Cc1nc(Oc2ccc(CC(=O)NC(C)C)cc2)ccc1CN1CCC(N2C(=O)N(c3cc(C(N)=O)c(F)cc3F)C[C@H]2c2ccccc2)CC1 ; cell line: HOS ; result: 3.3 nM
CCOC(=O)c1c(O)c2cc(-c3cccc(O)c3)cnc2n(O)c1=O ; cell line: HeLa ; result: 0.05 µM
Cc1nc(Oc2ccc(S(=O)(=O)C(C)C)cc2)ccc1CN1CCC(N2C(=O)N(c3cc(C(N)=O)c(F)cc3F)C[C@H]2c2ccccc2)CC1 ; cell line: HOS ; result: 3.6 nM
Nc1nc2c(ncn2C=C2CC2(F)CO)c(=O)[nH]1 ; cell line: Akata ; result: >209 µM
C/C(=C\Cn1cnc2c(=O)[nH]c(N)nc21)CO ; cell line: CCL18 ; result: >100 µg/mL
Nc1ncnc2c1ncn2/C=C1/CC1(CO)CF ; cell line: Akata ; result: 64.1 µM
CCOC(=O)CCCCCOc1cccc(CN(C(=O)c2ccc(-c3cc(C(F)(F)F)cc(C(F)(F)F)c3)cc2)C(C)C)c1 ; cell line: BJ ; result: >20 µM
COc1ccccc1-c1c(O)c2cccnc2n(O)c1=O ; cell line: HeLa ; result: <100 µM

Repeating the first 5 entries:

O=c1[nH]c(=O)n([C@@H]2CO[C@H](CO)[C@@H](O)C2)cc1-c1cccs1 ; cell line: E6SM ; result: >400 µg/mL
CC(C)(C)NC(=O)c1cccc(-c2cc(=O)n(O)c3ncccc23)c1 ; cell line: HeLa ; result: <100 µM
CC(C)=C[C@H](O)C[C@@H](C)[C@H]1CC[C@@]2(C)[C@@H]3[C@@H](O)C=C4[C@@H](CC[C@H](O)C4(C)C)[C@]3(C)CC[C@]12C ; cell line: MCF-7 ; method: MTT ; result: 27.3 µM
CN(CCOc1ccc(-c2ccc(Cl)cc2)cc1)CCN1CCN(c2ccncc2)C1=O ; cell line: RD ; result: >25 µM
CC(=O)O[C@@H](C/C=C(\C)C(=O)O)[C@@H](C)[C@H]1CC[C@@]2(C)C3=C(CC[C@]12C)[C@@]1(C)CC[C@@H](O)C(C)(C)C1CC3 ; cell line: NCI-H187 ; method: resazurin ; result: 34.15 µg/mL